Potato spindle tuber viroid, stem 15: variant abundance in plants

Values reported by Wu et al. 2024 (doi:10.1371/journal.ppat.1012142).

The pool varies stem 15 of the PSTVd intermediate strain in the pattern CUGGAGCGAUNGNNUNNG; wild type is CUGGAGCGAUCGCUUCGG (upper and lower strand joined, each 5' to 3', the first 9 letters being the upper strand).

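Three N. benthamiana plants were inoculated with the whole mutant pool. Progeny were sequenced from the inoculated region (day 5), the margin of the inoculated leaf (day 10) and systemic leaves (day 12).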

Values are reads per thousand in the sample; higher means more abundant, 0 means not found.
Each site shows the three plants.
"Pool" is the share in the plasmid pool used as inoculum, on the same scale.
The inoculated region was read from the minus strand, the other sites from the plus strand.
For reference, wild type rose from 10.2 per thousand in the pool to 285, 367, 312 (inoculated region), 785, 865, 782 (leaf margin) and 854, 898, 915 (systemic leaves).
The authors trace changes outside the varied positions to PCR and sequencing errors or to mutation in the plant; presence does not show that a variant is infectious alone.
Samples held 36,693 to 63,082 reads, so the smallest values rest on one or two reads.

| sequence | pool | inoculated region | leaf margin | systemic leaves |
|---|---|---|---|---|
| CUGGAGCGAUCGGCUGCG | 0.873 | 0.411 0.147 0.279 | 0.0620 0.0818 0.0159 | 0 0 0 |
| CUGGAGCGAUUGCUUACG | 0.840 | 0.215 0.188 0.521 | 0.103 0.0818 0.0476 | 0 0 0 |
| CUGGAGCGAUAGCGUAGG | 1.16 | 0.235 0.188 0.465 | 0.103 0.0545 0.0317 | 0 0 0 |
| CUGGAGCGAUAGACUUCG | 0.614 | 0.313 0.272 0.298 | 0.0414 0.0545 0.0159 | 0 0 0 |
| CUGGAGCGAUCGUGUCUG | 0.889 | 0.352 0.168 0.279 | 0.0827 0 0.0159 | 0 0 0 |
| CUGGAGCGAUUGAGUAGG | 0.776 | 0.254 0.335 0.335 | 0 0.0545 0.0159 | 0 0 0 |
| CUGGAGCGAUCGUAUAUG | 0.857 | 0.254 0.230 0.391 | 0 0.0545 0.0317 | 0 0 0 |
| CUGGAGCGAUCGAUUCUG | 0.614 | 0.333 0.440 0.391 | 0.0414 0.0545 0.0159 | 0 0 0 |
| CUGGAGCGAUGGUAUGGG | 0.857 | 0.313 0.293 0.205 | 0.0827 0 0.0476 | 0 0 0 |
| CUGGAGCGAUAGGUUGCG | 1.00 | 0.313 0.209 0.279 | 0.0620 0.0273 0.0317 | 0 0 0 |
| CUGGAGCGAUUGUCUAUG | 1.94 | 2.21 1.61 1.68 | 0.455 0.327 0.745 | 1.25 0.554 0.478 |
| CUGGAGCGAUUGAAUGGG | 0.808 | 0.313 0.209 0.298 | 0.0620 0.0545 0.0159 | 0 0 0 |
| CUGGAGCGAUCGUUUGUG | 0.840 | 0.157 0.335 0.465 | 0.0207 0.0545 0.0317 | 0 0 0 |
| CUGGAGCGAUCGCCUAUG | 0.792 | 0.235 0.230 0.316 | 0.103 0.0545 0.0317 | 0 0 0 |
| CUGGAGCGAUCGACUAGG | 0.695 | 0.117 0.314 0.316 | 0 0.0818 0.0159 | 0 0 0 |
| CUGGAGCGAUCGCGUAUG | 1.10 | 0.548 0.712 0.986 | 0.0620 0 0 | 0 0 0 |
| CUGGAGCGAUCGGGUACG | 0.776 | 0.215 0.293 0.316 | 0 0 0.0317 | 0 0 0 |
| CUGGAGCGAUGGGUUAUG | 0.760 | 0.235 0.209 0.298 | 0.0207 0 0.0317 | 0 0 0 |
| CGGGAGCGAUGGUGUUUG | 0.0162 | 0 0 0 | 0 0 0 | 0 0 0 |
| CUGGAGCGAUAGCCUUGG | 0.743 | 0.352 0.356 0.279 | 0.0827 0.0818 0 | 0 0 0 |
| CUGGAGCGAUCGGAUACG | 0.792 | 0.313 0.230 0.596 | 0.103 0 0.0476 | 0 0 0 |
| CUGGAGCGAUGGCGUUCG | 0.679 | 0.215 0.209 0.316 | 0.0827 0.0545 0.0476 | 0 0 0 |
| CUGGAGCGAUAGGUUCUG | 0.776 | 0.274 0.147 0.298 | 0.0620 0.0273 0.0159 | 0 0 0 |
| CUGGAGCGAUAGCCUUCG | 1.23 | 0.196 1.05 0.372 | 0.145 0.0273 0.0317 | 0 0 0 |
| CUGGAGCGAUCGUCUUGG | 0.857 | 2.02 1.13 1.62 | 0.0207 0.0273 0.523 | 0 0 0 |
| CUGGAGCGAUAGAAUUUG | 0.760 | 0.294 0.230 0.205 | 0.0207 0.0273 0 | 0 0 0 |
| CUGGAGCGAUAGAAUAUG | 1.02 | 0.294 0.272 0.409 | 0.103 0.0818 0.0793 | 0 0 0 |
| CUGGAGCGAUUGAAUAUG | 0.840 | 0.450 0.356 0.335 | 0.0414 0.0545 0.0317 | 0 0 0 |
| CUGGAGCGAUUGACUGUG | 0.679 | 0.235 0.314 0.335 | 0.145 0.109 0.0634 | 0 0 0 |
| CUGGAGCGAUGGCAUGAG | 0.840 | 0.254 0.209 0.298 | 0.124 0.0545 0.0159 | 0 0 0 |
| CUGGAGCGAUUGCCUUCG | 0.824 | 1.68 1.26 1.45 | 0.0414 0.0545 0.840 | 0 0 0 |
| CUGGAGUGAUCGCUUCGG | 0.0162 | 0.137 0.168 0.261 | 0.207 0.409 0.476 | 0.495 0.820 0.917 |
| CUGGAGCGAUAGAAUAAG | 1.03 | 0.215 0.251 0.242 | 0.0414 0.0273 0.0317 | 0 0 0 |
| CUGGAGCGAUAGUUUCUG | 1.58 | 1.57 1.07 1.12 | 0.103 0.0273 0 | 0 0 0 |
| CCGGAGCGAUGGCCUACG | 0.0162 | 0 0 0 | 0 0 0 | 0 0 0 |
| CUGGAGCGAUAGAAUUAG | 0.808 | 0.294 0.335 0.316 | 0.0827 0.0545 0.0476 | 0 0 0 |
| CUGGAGCGAUCGCAUGUG | 1.16 | 0.235 0.230 0.242 | 0.0207 0 0.0159 | 0 0 0 |
| CUGGAGCGAUGGGCUCCG | 0.792 | 0.372 0.251 0.428 | 0.103 0 0 | 0 0 0 |
| CUGGAGCGAUCGGAUAUG | 0.905 | 0.215 0.209 0.316 | 0.0414 0.0273 0.0159 | 0 0 0 |
| CUGGAGCGAUUGAGUGAG | 0.954 | 0.235 0.356 0.223 | 0.0414 0 0.0159 | 0 0 0 |
| CUGGAGCGAUUGGUUAGG | 0.873 | 0.372 0.419 0.372 | 0 0 0.0476 | 0 0 0 |
| CUGGAGCGAUCGCGUGCG | 0.986 | 0.157 0.251 0.335 | 0.0620 0.0818 0.0476 | 0 0 0 |
| CUGGAGCGAUUGUGUACG | 0.905 | 0.391 0.251 0.409 | 0.0207 0.0818 0.0317 | 0 0 0 |
| CUGGAGCGAUCGUGUGGG | 0.614 | 0.117 0.251 0.242 | 0.0620 0.0273 0.0159 | 0 0 0 |
| CUGGAGCGAUUGGCUCGG | 4.01 | 3.58 3.79 3.52 | 0.0207 0.0273 0.0317 | 0 0.0443 0.0399 |
| CUGGAGCGAUAGCAUACG | 0.760 | 0.196 0.272 0.335 | 0.0620 0.0273 0.0159 | 0 0 0 |
| CUGGAGCGAUAGCCUCUG | 0.873 | 0.274 0.188 0.372 | 0.0414 0.0273 0.0159 | 0 0 0 |
| CUGGAGCGAUCGUCUUCG | 0.808 | 2.05 1.09 1.62 | 0.145 0.0273 1.03 | 0 0 0 |
| CUGGAGCGAUAGGCUUUG | 1.70 | 0.978 1.68 0.856 | 0.0414 0 0.0317 | 0 0 0.0199 |
| CUGGAGCGAUGGCGUACG | 0.824 | 0.215 0.293 0.261 | 0.124 0.0545 0.0317 | 0 0 0 |
| CUGGAGCGAUGGGCUGGG | 0.840 | 0.274 0.293 0.354 | 0.103 0.0545 0.0159 | 0 0 0 |
| CUGGAGCGAUCGUGUGAG | 0.986 | 0.215 0.314 0.316 | 0.0620 0.0273 0.0159 | 0 0 0 |
| CUGGAGCGAUCGAGUUUG | 1.05 | 0.313 0.272 0.316 | 0.0207 0.0545 0.0159 | 0 0 0 |
| CUGGAGCGAUGGGCUCUG | 0.824 | 0.274 0.230 0.298 | 0.0827 0.0273 0.0159 | 0 0 0 |
| CUGGAGCGAUAGACUAGG | 0.921 | 0.313 0.272 0.372 | 0 0.0545 0 | 0 0 0 |
| CUGGAGCGAUCGAUUAGG | 0.857 | 0.313 0.419 0.223 | 0.0414 0.0273 0.0159 | 0 0 0 |
| CUGGAGCGAUUGACUAGG | 0.824 | 0.313 0.188 0.261 | 0.124 0 0.0317 | 0 0 0 |
| CUGGAGCGAUAGUGUGAG | 0.808 | 0.372 0.251 0.223 | 0.0620 0.0273 0.0317 | 0 0 0 |
| CUGGAGCGAUCGAUUGAG | 1.36 | 0.352 0.503 0.540 | 0 0.0273 0 | 0 0 0 |
| CUGGAGCGAUUGGGUGCG | 0.743 | 0.215 0.209 0.279 | 0.0620 0.0545 0 | 0 0 0 |
| CUGGAGCGAUCGUCUGAG | 0.905 | 2.21 1.05 1.30 | 0.558 0.0545 0.983 | 0 0 0 |
| CUGGAGCGAUUGUCUGCG | 0.743 | 1.86 0.859 1.47 | 0.0827 0 0.0159 | 0 0 0 |
| CUGGAGCGAUGGGUUCCG | 1.12 | 0.274 0.356 0.428 | 0 0 0.0159 | 0 0 0 |
| CUGGAGCGAUAGACUCGG | 1.03 | 0.333 0.377 0.261 | 0.0207 0 0.0317 | 0 0 0 |
| CUGGAGCGAUGGACUAGG | 1.36 | 0.587 0.503 0.707 | 0.0414 0.0545 0 | 0 0 0.0199 |
| CUGGAGCGAUCGAGUUAG | 0.873 | 0.352 0.314 0.279 | 0.0827 0.0273 0.0317 | 0 0 0 |
| CUGGAGCGAUCGCUGCGG | 0.0485 | 0.0587 0.0628 0.0744 | 0.0620 0.109 0.111 | 0.0990 0.133 0.0996 |
| CUGGAGCGAUAGUAUGAG | 0.792 | 0.157 0.293 0.298 | 0.0414 0.0545 0.0317 | 0 0 0 |